Reference: patent EP1370663B1, “MICROBIOLOGICAL METHOD FOR PRODUCING L-CARNITINE” (priority 2001, dated 2002)

Key:
HK1331b (DSM 3225) = assay: Conversion of butyrobetaine esters to butyrobetaine and L-carnitine by strain HK1331b; assay type: cell-based, Agrobacterium/Rhizobium HK1331b (DSM 3225); conditions: in 144 h, 0,90% (w/v) ester
HK1349 (DSM 3944) = assay: Conversion of butyrobetaine esters to butyrobetaine and L-carnitine by strain HK1349 (HPLC of supernatant); assay type: cell-based, Agrobacterium/Rhizobium HK1349 (DSM 3944); conditions: for Reaktionsgemisch Summe: HK1349, 74 h, sum = BBMe or BBEt + Butyrobetain + L-Carnitin; for Reaktionsgemisch L-Carnitin: HK1349, L-carnitine formed after 74 h; for Reaktionsgemisch L-Carnitin / Reaktionsgemisch BB: educt 0,75% (w/v); for Reaktionsgemisch BB: HK1349, butyrobetaine formed after 74 h; for Umsetzung des Butyrobetain-esters: HK1349, in 74 h, 0,75% (w/v) ester

| SMILES | Umsetzung des Butyrobetain-esters unter Bildung von Butyrobetain und L-Carnitin (HK1331b (DSM 3225)) | Reaktionsgemisch Summe (HK1349 (DSM 3944)) | Reaktionsgemisch L-Carnitin (HK1349 (DSM 3944); 30°C) | Reaktionsgemisch BB (HK1349 (DSM 3944); 30°C) | Umsetzung des Butyrobetain-esters (HK1349 (DSM 3944)) | Reaktionsgemisch BBEt (HK1349 (DSM 3944); HK1349, unconverted ester after 74 h, educt 43,1 mmol/L (0,75% w/v), 30°C) | Reaktionsgemisch BBMe (HK1349 (DSM 3944); HK1349, unconverted ester after 74 h, educt 46,9 mmol/L (0,75% w/v), 30°C) |
| --- | --- | --- | --- | --- | --- | --- | --- |
| CCOC(=O)CCC[N+](C)(C)C [BBEt, Butyrobetain-ethylester] | ca. 50% | 42 mmol/L | 10 mmol | 6 mmol/L | ca. 40% | 26 mmol/L |  |
| COC(=O)CCC[N+](C)(C)C [BBMe, Butyrobetain-methylester] | ca. 50% | 49 mmol/L | 9 mmol | 13 mmol/L | ca. 40% |  | 27 mmol/L |
